PubChem BioAssay AID504761 | Drosophila RNAi Screening Center | 2011
In all, the deposit lists about 22,000 reagents; shown is an unselected part of those that have a named target and a result. Over the whole deposit, 116 (0.52%) are marked active. 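Calls depend on retest data that are not deposited; infection was ranked per plate without normalising between plates; the unit of the infection score is not given.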 The raw values are shown without normalisation. Reagents against one gene are numbered here. Names joined by + are all predicted targets of the reagent. The record does not give: the amount of reagent, the time to read-out.

Test: 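Fly genes whose silencing reduces dengue virus type 2 infection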 (primary screen)
Cells: D.Mel-2 cells from Drosophila
Reagents: long dsRNA against Drosophila genes
Treatment: infection with dengue virus type 2; dose and infection time not stated
Detection: 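Cells stained for dengue envelope protein and imaged; percent of infected cells per well on duplicate plates, ranked by infection, with stained nuclei counted for cell number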
Scale: infection score: higher = more virus-infected cells; cell count: higher = more cells in the well
Call rule: 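Low infection ranks in the two replicates (chance level up to 0.065) followed by a retest with a 1.5-fold or larger significant decrease, p below 0.05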
Meaning of the calls: active = confirmed: knock-down lowers infection; inactive = not picked or not confirmed

target | reagent | infection score, replicate 1 | infection score, replicate 2 | cell count, replicate 1 | cell count, replicate 2 | activity call
Orc6 (Origin recognition complex subunit 6) | 1 | 2.97 | 13.8 | 6435 | 6012 | inactive
hh (hedgehog) | 1 | 18.3 | 4.95 | 5576 | 6864 | inactive
hh (hedgehog) | 2 | 11.8 | 9.72 | 4518 | 6174 | inactive
CG10466 | 1 | 16.9 | 14.8 | 5336 | 4747 | inactive
Baldspot | 1 | 1.6 | 3.33 | 6190 | 6194 | inactive
mRpL38 (mitochondrial ribosomal protein L38) | 1 | 7.71 | 9.47 | 4866 | 4243 | inactive
mRpL38 (mitochondrial ribosomal protein L38) | 2 | 19.8 | 22.4 | 4144 | 5214 | inactive
sinu (sinuous) | 1 | 2.13 | 3.51 | 6793 | 6386 | inactive
CG4830 | 1 | 3.35 | 4.34 | 6517 | 6662 | inactive
Sirt4 (Sirtuin 4) | 1 | 7.95 | 7.85 | 6198 | 6430 | inactive
Sirt4 (Sirtuin 4) | 2 | 9.99 | 21.5 | 6449 | 6144 | inactive
CheB42b (Chemosensory protein B 42b) | 1 | 1.35 | 12 | 5400 | 6054 | inactive
Cortactin | 1 | 5.57 | 12.9 | 6047 | 6444 | inactive
Cortactin | 2 | 12 | 28 | 905 | 5482 | inactive
RpL18 (Ribosomal protein L18) | 1 | 0.77 | 1.41 | 907 | 994 | inactive
RpL18 (Ribosomal protein L18) | 2 | 1.27 | 2.5 | 1413 | 1158 | inactive
Ir75a (Ionotropic receptor 75a) | 1 | 2.53 | 1.42 | 6922 | 6420 | inactive
Yeti | 1 | 4.12 | 9.11 | 5991 | 6005 | inactive
RnpS1 (RNA-binding protein S1) | 1 | 9.02 | 16.6 | 5542 | 5397 | inactive
Dlip3 (Dorsal interacting protein 3) | 1 | – | 27.6 | 532 | 7028 | inactive
Dlip3 (Dorsal interacting protein 3) | 2 | 21.6 | – | 5651 | 367 | inactive
Ir7g (Ionotropic receptor 7g) | 1 | 5.6 | 11.1 | 5861 | 5802 | inactive
Ir7g (Ionotropic receptor 7g) | 2 | 27.5 | 20.6 | 4986 | 5643 | inactive
Apc2 (Adenomatous polyposis coli 2) | 1 | 11.3 | 12.7 | 6555 | 6428 | inactive
Ctr1C (Copper transporter 1C) | 1 | 6.71 | 2.62 | 5156 | 6518 | inactive
Ripalpha (RPA-interacting protein alpha) | 1 | 3.96 | 2.4 | 6739 | 6825 | inactive
Zir (Zizimin-related) | 1 | 22.6 | 34.9 | 4957 | 5232 | inactive
CG46385 | 1 | 12 | 19.7 | 5707 | 5335 | inactive
CG46385 | 2 | 0.95 | 6.11 | 6448 | 6084 | inactive
CG9021 | 1 | 3.02 | 5.4 | 6456 | 6146 | inactive
ND-PDSW (NADH dehydrogenase (ubiquinone) PDSW subunit) | 1 | 0.7 | 0.59 | 6153 | 6232 | active
CG17059 + Fsn | 1 | 1.16 | 1.96 | 6019 | 6338 | inactive
CG32095 | 1 | 1.84 | 2.77 | 6745 | 5990 | inactive
CG2145 | 1 | 2.75 | 1.5 | 6431 | 6276 | inactive
CG2145 | 2 | 22.8 | 10.1 | 6375 | 6051 | inactive
CG9890 | 1 | 4.38 | 14.4 | 2717 | 5462 | inactive
CG9890 | 2 | 19.6 | 22.7 | 6777 | 6136 | inactive
CG6231 | 1 | 7.12 | 0.86 | 5979 | 7077 | inactive
CG6136 | 1 | 31.2 | 24.4 | 5110 | 5216 | inactive
salm (spalt major) | 1 | 10.9 | 8.96 | 5899 | 5963 | inactive
salm (spalt major) | 2 | 10.5 | 6.65 | 6192 | 6402 | inactive
Trhn (Tryptophan hydroxylase neuronal) | 1 | 7.18 | 8.82 | 6216 | 5488 | inactive
Vha100-3 (Vacuolar H[+] ATPase 100kD subunit 3) | 1 | 0.7 | 0.5 | 6309 | 5770 | inactive
RfC38 (Replication factor C 38kD subunit) | 1 | 8.99 | 26.9 | 6295 | 5904 | inactive
CG6144 | 1 | 6.99 | 8.44 | 6369 | 6625 | inactive
RhoGAP19D (Rho GTPase activating protein at 19D) | 1 | 3.8 | 1.45 | 6796 | 6690 | inactive
RhoGAP19D (Rho GTPase activating protein at 19D) | 2 | 1.32 | 1.12 | 6147 | 5156 | inactive
Ctu2 (Cytosolic thiouridylase subunit 2) | 1 | 9.95 | 6.73 | 6681 | 6507 | inactive
Ctu2 (Cytosolic thiouridylase subunit 2) | 2 | – | – | 292 | 321 | inactive
CG3517 | 1 | 3.82 | 1.12 | 6593 | 1516 | inactive
CG3517 | 2 | 5.13 | 15.3 | 6720 | 5996 | inactive
CG9932 | 1 | 7.13 | 11.1 | 5158 | 5851 | inactive
CG15905 | 1 | 1.48 | 1.75 | 6363 | 6412 | inactive
Set8 (SET domain containing 8) | 1 | 20.8 | 25.8 | 5292 | 4648 | inactive
Set8 (SET domain containing 8) | 2 | 14.1 | 11.8 | 5386 | 5852 | inactive
MAGE | 1 | 5.95 | 12.6 | 6420 | 6124 | inactive
GABA-B-R2 (metabotropic GABA-B receptor subtype 2) | 1 | 2.65 | 4.16 | 6636 | 6900 | inactive
GABA-B-R2 (metabotropic GABA-B receptor subtype 2) | 2 | 3.59 | 13.3 | 6514 | 3416 | inactive

Reagents listed so far marked active:
target | reagent | infection score, replicate 1 | infection score, replicate 2 | cell count, replicate 1 | cell count, replicate 2 | activity call
ND-PDSW (NADH dehydrogenase (ubiquinone) PDSW subunit) | 1 | 0.7 | 0.59 | 6153 | 6232 | active
